The values that follow come from article PMC10810642 (2024).

The test deals with purified HA protein of the A/Anas/KR/2017/2.3.4.4b subclade (influenza A virus A/Anas/KR/2017 (H5N6, …)). Description: SPR. (Surface plasmon resonance follows binding to a sensor surface in real time, without labels.)

B1: #11.4 mAb (antibody, V domains shown)
VH: QVQLQQSGAELVRPGTSVKISYKASGSTFTNYWLGWVKQRPGHGLEWIGDIYPGGGYANYNEKFKGKATLTADTSSSTAYMQLSSLTSEDSAVYFCARHRYEYFDVWGAGTTVTVSS
VL: DIQMTQSPSSLSASLGERVSLTCRASQDIGSSLNWLQQEPDGTIKRLIYATSSLDSGVPKRFSGSRSGSDYSLTISSLESEDFVDYYCLQYASSPYTFGGGTKLEIK
The koff is the rate constant with which the complex falls apart. For the molecule B1, the koff worked out at 7.4e-06 s⁻¹.
